Earlier results on 6 compounds are cited in patent US20030176327A1 (priority 2001, published 2003).

For this data set, the system named is B anthracis. The following applies: cited from earlier work.
As for `COc1cc(Cc2cnc(N)nc2N)cc(OC)c1OC`, the “Natural resistance of B anthracis strains” value is on record as “Natural resistance”.

Take `Cc1cc(NS(=O)(=O)c2ccc(N)cc2)no1`: the “Natural resistance of B anthracis strains” value is listed as “Natural resistance”. On to `C[C@H]1[C@H](NC(=O)/C(=N\OC(C)(C)C(=O)O)c2csc(N)n2)C(=O)N1S(=O)(=O)O`, for which the “Natural resistance of B anthracis strains” value is “Natural resistance”. For the compound `CO/N=C(\C(=O)N[C@@H]1C(=O)N2C(C(=O)O)=C(COC(C)=O)CS[C@H]12)c1csc(N)n1`, the “Natural resistance of B anthracis strains” value is “Natural resistance”. As to `CO/N=C(\C(=O)N[C@@H]1C(=O)N2C(C(=O)O)=C(COC(N)=O)CS[C@H]12)c1ccco1` [Cefuroxime], the “Natural resistance of B anthracis strains” value is on record as “Natural resistance”. For `CC(C)(O/N=C(\C(=O)N[C@@H]1C(=O)N2C(C(=O)[O-])=C(C[n+]3ccccc3)CS[C@H]12)c1csc(N)n1)C(=O)O`, the “Natural resistance of B anthracis strains” value is recorded as “Natural resistance”.
